Measured values from several laboratories, pooled; numbers as filed in NIAID ChemDB.

All rows: target-level tests

ICn is the concentration giving n% inhibition. Conditions beyond the fields shown may differ between rows. Two numbers with a dash give a range or band. An empty or dashed field is not shown. Percent inhibition refers to the dose given; in toxicity tests it is the harm to the cells.

compound,read-out,strain,method,target,dose,organism,result
CC[C@@H](C=O)NC(=O)[C@H](CC(C)C)NC(=O)[C@@H](NC(=O)[C@@H](NC(=O)CCN1CCOCC1)C(C)C)C(C)C,Ki,-,-,NS3 protease,-,Hepatitis C virus,1–100 µM
C=C[C@H]1C[C@@]1(NC(=O)[C@@H]1C[C@@H](Oc2cc(-c3ccccc3)nc3cc(OC)ccc23)CN1C(=O)[C@@H](NC(=O)NCC)C(C)(C)C)C(=O)NS(=O)(=O)C1(Cc2ccccc2)CC1,IC50,BMS,-,NS3/NS4A protease,-,Hepatitis C virus,<0.05 µM
COCCNc1nc(Nc2ccc3cn[nH]c3c2)nc(OC)n1,inhibition,-,-,Nonstructural protein 5B,0.1 µg/mL,Hepatitis C virus,24%
CC[C@@H](C=O)NC(=O)[C@@H]1C[C@@H](OC(=O)NCc2ccccc2)CN1C(=O)[C@@H](NC(=O)[C@@H](NC(=O)c1cnccn1)C(C)C)C(C)C,Ki,-,-,NS3 protease,-,Hepatitis C virus,1–100 µM
N#Cc1c(C2CCCCC2)nc(SCc2ccccc2)[nH]c1=O,IC50,-,-,NS3/NS4A helicase,-,Hepatitis C virus,15–40 µM
COc1cccc(-c2ccccc2-c2ccnc3cc(C(=O)NC4CCCC4)nn23)c1,IC50,-,-,RNA-dependent RNA polymerase,-,Hepatitis C virus,>10 µM
CC[C@H](NC(=O)[C@@H](NC(=O)[C@@H](NC(=O)[C@H](CC(C)C)NC(=O)[C@@H](CCC(=O)O)NC(=O)[C@H](CC(=O)O)NC(C)=O)[C@@H](C)CC)C1CCCCC1)C(=O)CCc1ccc(OC)cc1,inhibition,-,-,HCV NS3 protease,10 µM,Hepatitis C virus,81%
CC[C@@H](C=O)NC(=O)[C@@H]1C[C@@H](NC(=O)Cc2ccccc2)CN1C(=O)[C@@H](NC(=O)[C@@H](NC(=O)c1cnccn1)C(C)C)C(C)C,Ki,-,-,NS3 protease,-,Hepatitis C virus,1–100 µM
C=C[C@H]1C[C@@]1(NC(=O)[C@@H]1C[C@@H](Oc2cc(-c3ccccc3)nc3cc(OC)ccc23)CN1C(=O)[C@@H](NC(=O)OC(C)(C)C)C(C)(C)C)C(=O)NS(=O)(=O)C1(I)CC1,IC50,BMS,-,NS3/NS4A protease,-,Hepatitis C virus,<0.05 µM
CC[C@@H](C=O)NC(=O)[C@@H]1C[C@@H](OCc2ccccc2)CN1C(=O)[C@@H](NS(=O)(=O)c1ccccc1)C(C)C,Ki,-,-,NS3 protease,-,Hepatitis C virus,>100 µM
CC[C@H](NC(=O)[C@@H](NC(=O)[C@@H](NC(=O)[C@H](CC(C)C)NC(=O)[C@@H](CCC(=O)O)NC(=O)[C@H](CC(=O)O)NC(C)=O)[C@@H](C)CC)C1CCCCC1)C(O)/C=C/CCCC(C)C,inhibition,-,-,HCV NS3 protease,10 µM,Hepatitis C virus,64%
O=C(N[C@@H](Cc1cnc[nH]1)C(=O)O)c1cc2nc(-c3ccco3)c(C3CCCCC3)c(=O)n2[nH]1,IC50,-,-,RNA-dependent RNA polymerase,-,Hepatitis C virus,<1 µM
COc1nc(Nc2ccc3cn[nH]c3c2)nc(N2CCCC2)n1,inhibition,-,-,DNA polymerase,0.1 µg/mL,Hepatitis B virus,30%
COc1ccc(CCC2(C3CCCC3)CC(=O)C(C(=O)Cc3ccccc3)C(=O)O2)c(OC)c1,IC50,-,-,Nonstructural protein 5B,-,Hepatitis C virus,10–50 µM
CCCC(NC(=O)[C@@H]1CCCN1C(=O)[C@@H](NC(=O)[C@@H](NC(=O)[C@@H](CCC(=O)O)NC(=O)[C@H](CC(=O)O)NC(C)=O)[C@@H](C)CC)C(C)C)C(=O)C(F)(F)F,IC50,-,-,NS3 protease/NS4A cofactor,-,Hepatitis C virus,23.5 µM
CC(C)Nc1cccnc1N1CCN(C(=O)c2ccc(C(=O)NCCCn3ccnc3)cn2)CC1,IC50,-,-,Reverse transcriptase,-,Hepatitis B virus,0.001 µg/mL
O=C1CC(=O)OC(CCc2cccc3ccccc23)(C2CCCC2)C1,IC50,-,-,Nonstructural protein 5B,-,Hepatitis C virus,>50 µM
CC[C@H](NC(=O)[C@H](CC(C)C)NC(=O)[C@@H](NC(=O)[C@@H](NC(=O)c1cnccn1)C(C)C)C(C)C)C(=O)C(=O)N(CC)CC,Ki,-,-,NS3 protease,-,Hepatitis C virus,>100 µM
O=c1nc[nH]c(=O)c2c1ncn2[C@H]1O[C@@H](CO)[C@H](O)[C@@H]1O,IC50,-,helicase activity,Nonstructural protein 3 NTPase/helicase,-,Hepatitis C virus,>500 µM
C=C[C@H]1C[C@@]1(NC(=O)[C@@H]1C[C@@H](Oc2cc(-c3ccccc3)nc3cc(OC)ccc23)CN1C(=O)[C@@H](NC(=O)OC(C)(C)C)C(C)(C)C)C(=O)NS(=O)(=O)C1(Cc2ccc(OC)cc2)CC1,IC50,BMS,-,NS3/NS4A protease,-,Hepatitis C virus,<0.05 µM
O=C(/C=C/c1ccc(O)c(O)c1)O[C@H]1[C@H](O)C[C@](O)(C(=O)O)C[C@H]1OC(=O)/C=C/c1ccc(O)c(O)c1,inhibition,HepG 2.2.15,ELISA,HBsAg,50 µg/mL,Hepatitis B virus,28.5%
Nc1cccnc1N1CCN(C(=O)c2ccc(C(=O)NCCO)cn2)CC1,IC50,-,-,Reverse transcriptase,-,Hepatitis B virus,0.003 µg/mL
Cc1cc(SC2=C(O)CC(CCc3cccc(O)c3)(c3ccccc3)OC2=O)c(C(C)(C)C)cc1CO,IC50,-,-,Nonstructural protein 5B,-,Hepatitis C virus,>50 µM
CCCN(NC(=O)[C@@H]1C[C@@H](OCc2ccccc2)CN1C(=O)[C@@H](NC(=O)[C@H]([C@@H](C)CC)N(S)C(=O)[C@@H](CCC(=O)O)NC(=O)[C@H](CC(=O)O)NC(C)=O)C(C)C)C(=O)NCc1ccccc1,IC50,-,-,NS3 protease/NS4A cofactor,-,Hepatitis C virus,5 µM
O=C(O)c1cc(-c2ccc(Cl)cc2)n2nc(-c3ccccc3)cc2n1,IC50,-,-,RNA-dependent RNA polymerase,-,Hepatitis C virus,>10 µM
N#Cc1c(Cc2ccccc2)nc(SCc2ccccc2)[nH]c1=O,IC50,-,-,NS3/NS4A helicase,-,Hepatitis C virus,>40 µM
O=C1C=C(O)CC(CCc2cc3ccccc3o2)(C2CCCC2)O1,IC50,-,-,Nonstructural protein 5B,-,Hepatitis C virus,10–50 µM
CCNc1cccnc1N1CCN(C(=O)c2ccc(C(=O)NC(C)(C)CO)cn2)CC1,IC50,-,-,Reverse transcriptase,-,Hepatitis B virus,0.068 µg/mL
COc1ccc(CCC2(C3CCCC3)CC(O)=C(Sc3n[nH]c(=O)n3C)C(=O)O2)cc1,IC50,-,-,Nonstructural protein 5B,-,Hepatitis C virus,1–10 µM
COCCCNC(=O)c1ccc(C(=O)N2CCN(c3ncccc3NC(C)C)CC2)nc1,IC50,-,-,Reverse transcriptase,-,Hepatitis B virus,0.13 µg/mL
N#Cc1cnn2c(-c3cccc(Oc4ccccc4)c3)c(-c3ccccc3)cnc12,IC50,-,-,RNA-dependent RNA polymerase,-,Hepatitis C virus,>10 µM
C=C[C@H]1C[C@@]1(NC(=O)[C@@H]1C[C@@H](Oc2cc(-c3ccccc3)nc3cc(OC)ccc23)CN1C(=O)[C@@H](NC(=O)OC(C)(C)C)C(C)(C)C)C(=O)NS(=O)(=O)C1(CCC)CC1,IC50,BMS,-,NS3/NS4A protease,-,Hepatitis C virus,<0.05 µM
CCCC(=O)[C@H](CC)NC(=O)[C@@H](NC(=O)[C@@H](NC(=O)[C@H](CC(C)C)NC(=O)[C@@H](CCC(=O)O)NC(=O)[C@H](CC(=O)O)NC(C)=O)[C@@H](C)CC)C1CCCCC1,inhibition,-,-,HCV NS3 protease,10 µM,Hepatitis C virus,80%
CC(C)CNc1cccnc1N1CCN(C(=O)c2ccc(C(=O)NCCO)cn2)CC1,IC50,-,-,Reverse transcriptase,-,Hepatitis B virus,0.009 µg/mL
N#Cc1c(-c2ccc(Cl)cc2)nc(CCc2ccccc2)[nH]c1=O,IC50,-,-,NS3/NS4A helicase,-,Hepatitis C virus,>40 µM
CC[C@H](NC(=O)[C@@H](NC(=O)[C@@H](NC(=O)[C@H](CC(C)C)NC(=O)[C@@H](CCC(=O)O)NC(=O)[C@H](CC(=O)O)NC(C)=O)[C@@H](C)CC)C1CCCCC1)C(O)/C=C/c1nccs1,inhibition,-,-,HCV NS3 protease,10 µM,Hepatitis C virus,47%
COc1nc(NCCN(C)C)nc(Nc2ccc3[nH]ncc3c2)n1,inhibition,-,-,DNA polymerase,0.1 µg/mL,Hepatitis B virus,41%
C=CCOCc1ccccc1CCC1(C2CCCC2)CC(=O)CC(=O)O1,IC50,-,-,Nonstructural protein 5B,-,Hepatitis C virus,10–50 µM
COc1nc(Nc2ccc3[nH]ncc3c2)nc(N2CCC(O)CC2)n1,inhibition,-,-,DNA polymerase,0.1 µg/mL,Hepatitis B virus,40%
CC[C@H](C)[C@]1(CC(=O)O)OCCc2c1[nH]c1c(C)c(OCCn3cccn3)cc(C#N)c21,IC50,BK,nucleotide incorporation,HCV polymerase,-,Hepatitis C virus,0.012 µM
N#Cc1cnn2c(-c3ccccc3)c(-c3ccc(OCc4ccccc4)cc3)cnc12,IC50,-,-,RNA-dependent RNA polymerase,-,Hepatitis C virus,>10 µM
N#Cc1c(-c2ccc(Cl)cc2)nc(Nc2ccc(Cl)cc2)[nH]c1=O,IC50,-,-,NS3/NS4A helicase,-,Hepatitis C virus,15–40 µM
Cc1ccc(S(=O)(=O)NC(=O)[C@H](CC(C)C)NC(=O)[C@@H]2C[C@H](n3cc(-c4ccccc4)nn3)CN2C(=O)[C@@H](NC(=O)C(=O)OC(C)(C)C)C(C)(C)C)cc1,IC50,-,FRET,Nonstructural protein 3/4A,-,Hepatitis C virus,>100 µM
C=CC1C[C@@]1(NC(=O)[C@@H]1C[C@@H](Oc2cc(-c3ccccc3)nc3cc(OC)ccc23)CN1C(=O)[C@@H](NC(=O)N(C)C(C)(C)C)C(C)(C)C)C(=O)NS(=O)(=O)C1(CC2CC2)CC1,IC50,BMS,-,NS3/NS4A protease,-,Hepatitis C virus,<0.05 µM
O=C(O)c1cc2nc(-c3ccccc3Cl)cc(-c3ccc(-c4ccccc4)cc3)n2n1,IC50,-,-,RNA-dependent RNA polymerase,-,Hepatitis C virus,1–10 µM
CC(C)CNc1cccnc1N1CCN(C(=O)c2ccc(C(=O)NCCCn3ccnc3)cn2)CC1,IC50,-,-,Reverse transcriptase,-,Hepatitis B virus,0.002 µg/mL
c1ccc(Oc2ccc(-c3c(-c4ccccc4)cnc4c(-c5nn[nH]n5)cnn34)cc2)cc1,IC50,-,-,RNA-dependent RNA polymerase,-,Hepatitis C virus,>10 µM
CC[C@H](NC(=O)[C@@H](NC(=O)[C@@H](NC(=O)[C@H](CC(C)C)NC(=O)[C@@H](CCC(=O)O)NC(=O)[C@H](CC(=O)O)NC(C)=O)[C@@H](C)CC)C1CCCCC1)C(=O)O,inhibition,-,-,HCV NS3 protease,10 µM,Hepatitis C virus,60%
CC[C@@H]1C[C@]1(NC(=O)[C@@H]1C[C@@H](Oc2cc(-c3csc(NC(C)C)n3)nc3c(Cl)c(OCCN4CCOCC4)ccc23)CN1C(=O)[C@@H](NC(=O)OC1C[C@@H]2C[C@@H]2C1)C(C)(C)C)C(=O)O,Ki,JFH-1 (gt 2a),fluorescence,Nonstructural protein 3 protease,-,Hepatitis C virus,0.039 µM
COc1nc(NCCCn2ccnc2)nc(Nc2ccc3[nH]ncc3c2)n1,IC50,-,-,DNA polymerase,-,Hepatitis B virus,0.1–1 µg/mL
O=C(O)c1cc2ncc(-c3ccc(Oc4ccccc4)cc3)c(-c3ccccc3)n2n1,IC50,-,-,RNA-dependent RNA polymerase,-,Hepatitis C virus,>10 µM
N#Cc1c(-c2ccc(Cl)cc2)nc(SCCCc2ccccc2)[nH]c1=O,IC50,-,-,NS3/NS4A helicase,-,Hepatitis C virus,<15 µM

4 of the rows above, restated:

compound,read-out,strain,method,target,dose,organism,result
CC(C)CNc1cccnc1N1CCN(C(=O)c2ccc(C(=O)NCCO)cn2)CC1,IC50,-,-,Reverse transcriptase,-,Hepatitis B virus,0.009 µg/mL
CCCC(=O)[C@H](CC)NC(=O)[C@@H](NC(=O)[C@@H](NC(=O)[C@H](CC(C)C)NC(=O)[C@@H](CCC(=O)O)NC(=O)[C@H](CC(=O)O)NC(C)=O)[C@@H](C)CC)C1CCCCC1,inhibition,-,-,HCV NS3 protease,10 µM,Hepatitis C virus,80%
CC(C)Nc1cccnc1N1CCN(C(=O)c2ccc(C(=O)NCCCn3ccnc3)cn2)CC1,IC50,-,-,Reverse transcriptase,-,Hepatitis B virus,0.001 µg/mL
COc1cccc(-c2ccccc2-c2ccnc3cc(C(=O)NC4CCCC4)nn23)c1,IC50,-,-,RNA-dependent RNA polymerase,-,Hepatitis C virus,>10 µM